Experimental data from patent US20220356230A1 (published 2022).
Residue numbers refer to the chain shown, from its start. “And” between values parts separate entries of the source, which are not always exact repeats. Equal entries are not always repeated. Where two headings read alike, the source gives them in different places.

Columns and labels:
[1] = target: SARS-CoV-2 RBD extracellular domain expressed with a C-terminal mouse IgG2a (SARS-COV-2 RBD-mFc) (SARS-CoV-2)
[2] = target: SARS-COV-2 RBD extracellular domain expressed with a C-terminal mouse IgG2a (SARS-COV-2 RBD-mFc) (SARS-CoV-2); assay: SPR Biacore, mAb captured on anti-human Fc, RBD-mFc in solution, 37 C
[3] = target: SARS-COV-2 RBD extracellular domain expressed with a C-terminal myc-myc-hexahistidine (SARS-COV-2 RBD-MMH) (SARS-CoV-2); assay: SPR Biacore, mAb captured on anti-human Fc, RBD-MMH in solution, 37 C
[4] = target: SARS-COV-2 RBD extracellular domain expressed with a C-terminal mouse IgG2a (SARS-COV-2 RBD-mFc) (SARS-CoV-2); assay: SPR
[5] = target: T1, VLPs expressing VSV only (negative binding control) (vesicular stomatitis virus); assay: MSD electrochemiluminescence, control VLPs on plate, mAb 5.5 nM, expt 2
[6] = target: T1, VLPs expressing VSV only (negative …); assay: MSD electrochemiluminescence, control VLPs on plate, mAb […], expt 2
[7] = target: T1, VLPs expressing VSV only (negative …); assay: MSD electrochemiluminescence, control VLPs on plate, mAb 5.5 nM, expt 1
[8] = target: T1, VLPs expressing VSV only (negative …); assay: MSD electrochemiluminescence, control VLPs on plate, mAb […], expt 1
[9] = target: SARS-COV-2 RBD extracellular domain expressed with a C-terminal myc-myc-hexahistidine (SARS-COV-2 RBD-MMH) (SARS-CoV-2); assay: SPR
[10] = target: SARS-COV-2 RBD extracellular domain expressed with a C-terminal myc-myc-hexahistidine (SARS-COV-2 RBD-MMH) (SARS-CoV-2); assay: SPR; remark: listed apart in the source
[11] = target: SARS-COV-2-S RBD extracellular domain expressed with a C-terminal myc-myc-hexahistidine (SARS-COV-2 RBD-MMH) (SARS-CoV-2)
[12] = target: Bt-SARS-CoV-2 Spike Protein (RBD)(R319-F541).hFc (SARS-CoV-2); assay: Luminex bead assay, antibody supernatant, biotinylated antigen on microspheres

B1: mAb10922 (antibody, V domains shown)
VH: EVQLVESGGGLVQPGGSLRLSCAASGFTFSIYEMNWVRQAPGKGLEWVSYITSSGTTIYYADSVKGRFTISRDNAKNSLYLQMNSLRAEDTAVYYCASSSSSGYYFDYWGQGTLVTVSS
VL: not shown
For B1, the koff [1] was 2.42e-05 s⁻¹, the kon [1] was 719000 M⁻¹ s⁻¹ and the “t½” value [1] was 478 min.

B2: mAb10922 (antibody, V domains shown)
VH: B1 VH
VL: not shown
Binder B2 has a koff [2] of 0.00016 s⁻¹ and a kon [2] of 4.6e+06 M⁻¹ s⁻¹.

B3: mAb10922 (antibody, V domains shown)
VH: B1 VH
VL: not shown
B3 was tested, and the koff [3] was 0.00927 s⁻¹ and the kon [3] was 1.04e+06 M⁻¹ s⁻¹.

B4: mAb10922 (antibody, V domains shown)
VH: B1 VH
VL: not shown
In the case of B4, the koff [4] is reported as 5.64e-05 s⁻¹, the kon [4] is reported as 3.2e+06 M⁻¹ s⁻¹ and the “t½ (dissociative half-life)” value [4] is reported as 205 min.

B5: mAb10922 (antibody, V domains shown)
VH: B1 VH
VL: not shown
With B5 the “Antibody Binding Signal (RLU)” value [5] was 129 RLU and the “Antibody Binding Signal (RLU)” value [6] was 39 RLU.

B6: mAb10932 (antibody, V domains shown)
VH: EVQLVESGGGLVQSGGSLRLSCAASGLTVSSNYMSWVRQAPGKGLEWVSVIYSGGSTFYSDSVKGRFTISRHNSKNTLYLQMNSLRAEDTAVYYCARARGDAFDIWGQGTMVTVSS
VL: DIQMTQSPSSLSASVGDRVTITCQASQGISNYLNWYQQKPGKAPKLLISDASNLETGVPSRFSGSGSGTDFTFTISSLQPEDIATYYCQQYDNLRFFTFGPGTKVDIKR
With B6 the “Antibody Binding Signal (RLU)” value [7] was 105 RLU and the “Antibody Binding Signal (RLU)” value [8] was 35 RLU.

B7: mAb11006 (antibody, V domains shown)
VH: EVQLVESGGGLVQPGGSLRLSCAASGFIVSRNYMSWVRQAPGKGLEWVSVIYSGGSTFYADSVKGRFTISRHNSKNTLYLQMNSLKAEDTAVYYCARELRGYFDYWGQGTLVTVSS
VL: DIQLTQSPSFLSASVGDRVTITCWASQGISSYLAWYQQKPGKAPKLLIYAASTLQSGVPSRFSGSGSGTEFTLTISSLQPEDFATYYCQLLNSYPYTFGQGTKLEIKR
B7 was tested, and the “t½” value [9] was 26.3 min.

B8: mAb10914 (antibody, V domains shown)
VH: EVQLVESGGGLVQPGGSLRLSCAASGLIVSRNYMIWVRQAPGKGLEWVSVIYSGGSTFYADSVKGRFTISRHNSKNTLYLQMNSLRAEDTAVYYCARDLGTGGMDVWGQGTTVTVSS
VL: B7 VL with L90Q, Y96L, Q100G, L104V
With B8 the “Antibody Binding Signal (RLU)” value [7] was 1820 RLU and the “Antibody Binding Signal (RLU)” value [8] was 85 RLU.

B9: mAb11008 (antibody, V domains shown)
VH: EVQLVESGGGLVQPGGSLRLSCAASGFTVSSNYMTWVRQAPGKGLEWVSVIYSGGSTFYADSVKGRFTISRHNSENTLYLQMNSLRAEDTAVYYCARDLAAAGTDYWGQGALVTVSS
VL: B7 VL with E81D, L90H, P95L
With B9 the t½ [10] was 7.6 min.

B10: mAb11008 (antibody, V domains shown)
VH: B9 VH
VL: B7 VL with E81D, L90H, P95L
In the case of B10, the “t½” value [9] is reported as 3.5 min.

B11: mAb10985 (antibody, V domains shown)
VH: EVQLVESGGGLVQPGRSLRLSCAASGFTFDDYAMHWVRQAPGKGLEWVSGISWNRGSIGYADSVKGRFTISRDNAKNSLYLQMSSLRAEDTALYYCAKDGERWDSVVVPSARNGMDVWGQGTTVTVSS
VL: QSVLTQPPSVSGAPGQRVTISCTGSSSNIGAGYDVHWYQQLPGTAPKLLIYGNSNRPSGVPDRFSGSKSGTSASLAITGLQAEDEADYYCQSYDSSLSGSYVFGTGTKVTVLG
B11 was tested, and the t½ [10] was 2.7 min.

B12: mAb10985 (antibody, V domains shown)
VH: B11 VH
VL: B11 VL
In the case of B12, the “t½” value [11] is reported as 3.2 min and 3.6 min.

B13: mAb10984 (antibody, V domains shown)
VH: EVQLVESGGGLVQPGGSLRLSCAASGLTVNRNYMSWVRQAPGKGLEWVSLIYSGGSTYYADSVKGRFTISRDNSKNTLYLQMNSLRLEDTAVYYCARGELGIPYGMDVWGQGTTVTVSS
VL: QSVLTQPPSVSAAPGQKVTISCSGSSSNIGNNYVSWYQQLPGTAPKLLIYDNNKRPSGIPDRFSGSKSGTSATLGITGLQTGDEADYYCGTWDSSLSAGVFGGGTKLTVLG
In the case of B13, the “Binding signal (MFI)” value [12] is reported as 22500 MFI.

B14: mAb10937 (antibody, V domains shown)
VH: QITLKESGPTLVKPTQTLTLTCTFSGFSLSTNVVGVGWIRQPPGKALEWLALIYWNDDKRYSPSLKSRLTITKDTSKNQVVLTMTNMDPVDTATYYCAHGPTGDYFDYWGQGTLVTVSS
VL: not shown
In the case of B14, the “Antibody Binding Signal (RLU)” value [7] is reported as 204 RLU and the “Antibody Binding Signal (RLU)” value [8] is reported as 43 RLU.

B15: mAb10930 (antibody, V domains shown)
VH: EVQLVESGGGLVQPGRSLRLSCAASGFTFDDYAMYWVRQAPGKGLEWVSGISWNSGSIGYADSVKGRFTISRDNAKNSLYLQMNSLRAADTALYYCAKDKDWNSRGYYYYGMDVWGQGTTVTVSS
VL: not shown
For B15, the “Antibody Binding Signal (RLU)” value [5] was 291 RLU and the “Antibody Binding Signal (RLU)” value [6] was 38 RLU.

B16: mAb10930 (antibody, V domains shown)
VH: B15 VH
VL: not shown
B16 was tested, and the “Binding signal (MFI)” value [12] was 25900 MFI.

B17: mAb10966 (antibody, V domains shown)
VH: EVQLVESGGGLVQPGGSLRLSCAASGLTVSSNYMSWVRQAPGKGLEWVSVIYSGGSTFYADSVKGRFTISRDNSKNTLYLQMNSLRPEDTAVYYCAREGRIAATGYGMDVWGQGTTVTVSS
VL: DIQMTQSPSSLSASVGDRVTITCQASQDISNYLNWYQQKPGKAPKLLIYDASNLGTGVPSRFSGSRSGTDFTFTISSLQPEDIATYYCHQYDNLPQTFGPGTKVDIKR
B17 was tested, and the “t½” value [11] was 7.2 min and 8.2 min.

B18: mAb10938 (antibody, V domains shown)
VH: EVQLVESGGGLVQPGGSLRLSCAVSGFTVSSNYMSWVRQAPGKGLEWVSLIYSGGSTFYADSVKGRFTISRHNSKNTLYLQMNSLRAEDTAVYYCAREGGYSYDYNYWGQGTLVTVSS
VL: B17 VL with S30R, G55E, S65I, R66G, H89Q, Q96I, P100Q, K103R, V104L, D105E
With B18 the “Antibody Binding Signal (RLU)” value [7] was 395 RLU and the “Antibody Binding Signal (RLU)” value [8] was 37 RLU.

B19: mAb10956 (antibody, V domains shown)
VH: B8 VH with I28T, R31S, I35S, H72D, G100I, T101K, G102Y
VL: B17 VL with G55E, R66G, H89Q, Q96P, T97H
In the case of B19, the “Antibody Binding Signal (RLU)” value [5] is reported as 373 RLU and the “Antibody Binding Signal (RLU)” value [6] is reported as 71 RLU.

B20: mAb10966 (antibody, V domains shown)
VH: B17 VH
VL: B17 VL
For B20, the “Antibody Binding Signal (RLU)” value [5] was 97 RLU and the “Antibody Binding Signal (RLU)” value [6] was 88 RLU.

B21: mAb11004 (antibody, V domains shown)
VH: QVQLVESGGGVVQPGRSLRLSCVASGFTFSIYGMDWVRQAPGKGLEWVAVISYDGSNKYYADSVKGRFTISRDNSKNTLYLQMNSLRPEDTAVYYCAKDREAAADAFDIWGQGTMVTVSS
VL: DIQMTQSPSSVSASVGDRVTITCRASQGISSWLAWYQQKPGKAPKLLIYAASSLHSGVPSRFSGSGSGTDFTLTISSLQPEDFATYYCQQANSFRLTFGGGTKVEIKR
For B21, the t½ [10] was 7.8 min.
